Results of unrelated studies side by side (data: NIAID ChemDB).

Common to all: growth or infection tests

Percent inhibition refers to the dose given; in toxicity tests it is the harm to the cells. a–b is a range or a potency band. An empty or dashed field is not shown. Lines come from different laboratories, so protocols vary. ECn: concentration that inhibits the pathogen or its effect by n%. Fold resistance: result on the changed form divided by that on wild type.

smiles	organism	strain or isolate	mutations	cells	read by	read-out	dose	result
CC(C)OP(=O)(COCCn1cnc2c(N)ncnc21)OC(C)C	Hepatitis B virus			HB611		EC50		17 µM
Nc1ncnc2c1ncn2CCOCP(=O)(O)O	Hepatitis B virus	Genotype D		PHH	PCR	inhibition	1 µM	50–80%
CC[C@H](C)C(=O)O[C@H]1CC=CC2C=C[C@H](C)[C@H](CC[C@@H]3C[C@@H](O)CC(=O)O3)[C@H]21	Hepatitis C virus			Huh 5-2	luciferase / replicon	EC90		4.7 µM
C[C@@]1(O)[C@H](O)[C@@H](CO)O[C@H]1n1ccc2c(N)ncnc21	Hepatitis C virus			HeLa-5B	MTT	inhibition	50 µg/mL	1.07%
C=CC(=O)NCC(=O)N1C[C@H](Oc2nccc3ccc(Br)cc23)C[C@H]1C(=O)N[C@]1(C(=O)NS(=O)(=O)C2CC2)C[C@H]1C=C	Hepatitis C virus	1b WT			luciferase	EC50		0.21 µM
Nc1ccn([C@@H]2CS[C@H](CO)O2)c(=O)n1	Hepatitis B virus	Mutation M552I		Huh7		EC50		>80 µM
CC[C@H]1C[C@]1(NC(=O)[C@@H]1C[C@@H]2CN1C(=O)[C@H](C(C)(C)C)NC(=O)OCC(C)(C)CCCCc1cccc3c1CN(C3)C(=O)O2)C(=O)NS(=O)(=O)C1CC1	Hepatitis C virus	K3a/650		Huh7.5	antigen	EC50		2.275 µM
Nc1nc2ncn(CCOCP(=O)(O)O)c2c(=O)[nH]1	Hepatitis B virus			HB611		EC50		15 µM
Clc1ccc(Cn2c(CN3CCCC3)nc3ccccc32)cc1	Hepatitis C virus	1b Con1		Huh7	luciferase / replicon	inhibition	15 µM	71.8%
Nc1ccn(C[C@H](CO)OCP(=O)(O)O)c(=O)n1	Hepatitis B virus			HB611		EC50		200 µM
CC1N=C(c2ccc(OCCOC3CC(C(=O)O)C3)cc2)Nc2c(Cl)cccc21	Hepatitis A virus			HepDES19	ELISA / antigen	EC50		1.03 µM
Cc1[nH]c(=S)nc2c1ncn2CCOCCP(=O)(O)O	Hepatitis B virus			HB611		EC50		>400 µM
CC(C)OC(=O)[C@H](C)N[P@](=O)(OC[C@H]1O[C@@H](n2ccc(=O)[nH]c2=O)[C@](C)(F)[C@@H]1O)Oc1ccccc1	Hepatitis C virus	1b Con1		Huh7	luciferase / replicon	inhibition	0.03 µM	26.8%
Nc1ncnc2c1ncn2CCOCP(=O)(O)O	Hepatitis B virus	WILD TYPE		HepG2		EC50		0.08 µM
CC(C)OC(=O)[C@H](C)N[P@](=O)(OC[C@H]1O[C@@](C#N)(c2ccc3c(N)ncnn23)[C@](C)(O)[C@@H]1OC(=O)C(C)C)Oc1ccccc1	Hepatitis C virus	1b Con1	Y448H Y452H	1C	luciferase	fold resistance		0.8
CCC(CCC(C)C1CCC2C3C[C@@H](O)[C@@]4(O)C[C@@H](O)CCC4(C)C3CCC12C)C(C)C	Hepatitis B virus			HepG2 2.2.15	antigen	inhibition	6.25 µg/mL	3.27%
Nc1ccnc2c1ncn2CCOCP(=O)(O)O	Hepatitis B virus			HB611		EC50		<17.4 µM
CC(C)(CO)C(=O)SCCOP(=O)(NCc1ccccc1)OC[C@H]1O[C@@H](n2cnc3c(=O)[nH]c(N)nc32)[C@](C)(O)[C@@H]1O	Hepatitis C virus	GT1b	R30E	Replicon cells	replicon	fold resistance		0.52
C[C@@]1(O)[C@H](O)[C@@H](CO)O[C@H]1c1coc2c(N)ncnc12	Hepatitis C virus			Hep3B-T5B	MTT	inhibition	10 µg/mL	1.01%
Nc1ccn(CCOCCP(=O)(O)O)c(=O)n1	Hepatitis B virus			HB611		EC50		>400 µM